A mixed list of measured activities; the numbers were collected in NIAID ChemDB.

Shared fields: tests in culture; organism: Varicella zoster virus; measure: EC50

An empty or dashed field is not shown. Rows are shuffled and stem from different studies. a–b is a range or a potency band. ECn is the concentration giving n% inhibition of infection, replication or growth.

smiles,strain or isolate,cells,method,result
Nc1nc2c(ncn2[C@@H]2C[C@H](CO)[C@H]2CO)c(=O)[nH]1,,VERO,cytopathic effect,0.01–0.1 µM
O=c1[nH]c(=O)n([C@H]2CO[C@@H](CO)O2)cc1/C=C/Br,,HEL 299,,21 µM
O=c1[nH]c(=O)n([C@H]2C[C@H](O)[C@@H](CO)O2)cc1/C=C/Br,KANNO,HEF,plaque count,0.008 µg/mL
Nc1nc2c(ncn2COCCO)c(=O)[nH]1,,HEL 299,,4 µM
O=c1[nH]c(=O)n([C@H]2C[C@H](O)[C@@H](CO)O2)cc1I,CAQU,HEF,plaque count,0.37 µg/mL
Cc1cn([C@@H]2O[C@H](CO)[C@](O)(C(F)(F)F)[C@H]2O)c(=O)[nH]c1=O,,VERO,cytopathic effect,>50 µg/mL
O=c1[nH]c(=O)n([C@H]2C[C@H](O)[C@@H](COP3(=O)OCc4cccc(-c5ccccc5)c4O3)O2)cc1/C=C/Br,OKA,HELF,plaque count,0.025 µg/mL
Nc1nc2c(ncn2[C@@H]2C=C[C@H](CO)[C@@H](O)C2)c(=O)[nH]1,YS,E6SM,cytopathic effect,0.49 µg/mL
Cc1ccccc1CSCc1cnc2c(Br)cc(Br)c(C)n12,07/1 (TK-),HEL,plaque count,>5 µg/mL
O=c1[nH]c(=O)n([C@H]2C[C@H](O)[C@@H](COP3(=O)OCc4ccc5ccccc5c4O3)O2)cc1/C=C/Br,OKA,HELF,plaque count,0.011 µg/mL
O=C(O)P(=O)(O)O,Oka PFA-resistant/A,HEL,cytopathic effect,240 µM
Nc1ncnc2c1ncn2C[C@@H](CO)OCP(=O)(O)O,,WI-38,plaque count,0.6 µM
Nc1ncnc2c1ncn2[C@@H]1O[C@H](CO)[C@](O)(C(F)(F)F)[C@H]1O,,VERO,cytopathic effect,>50 µg/mL
Cc1c(Br)cc(Br)c2ncc(CSCc3ccccc3)n12,07/1 (TK-),HEL,plaque count,>20 µg/mL
Nc1ncnc2c1ncn2[C@@H]1C=C(CO)[C@@H](O)[C@H]1O,07/1 YS/R (TK-),E6SM,cytopathic effect,70 µg/mL
O=c1[nH]c(=O)n([C@H]2C[C@H](O)[C@@H](CO[P@]3(=O)OCc4cccc(-c5ccccc5)c4O3)O2)cc1/C=C/Br,OKA,HELF,plaque count,0.017 µg/mL
CCCCCc1ccc(-c2cc3cn(C4C[C@H](F)[C@@H](CO)O4)c(=O)nc3o2)cc1,07 (TK-),,,>2 µM
Cc1c(Br)cc(Br)c2ncc(CSCc3ccccc3F)n12,YS (TK+),HEL,plaque count,>5 µg/mL
O=c1[nH]c(=O)n([C@@H]2O[C@H](CO)[C@@H](O)[C@@H]2O)cc1/C=C/Br,Oka penciclovir-resistant/A,HEL,cytopathic effect,0.0003 µM
Cc1c(Br)cc(Br)c2ncc(CSCCCc3ccccc3)n12,07/1 (TK-),HEL,plaque count,8.3 µg/mL
Nc1nc2c(ncn2CCC(CO)CO)c(=O)[nH]1,Oka CF1368-resistant,HEL,cytopathic effect,18.2 µM
O=c1[nH]c(=O)n([C@H]2C[C@H](O)[C@@H](CO)O2)cc1/C=C/I,VEX411,HEF,cytopathic effect,0.01 µg/mL
Cc1c(Br)cc(Br)c2ncc(CSCc3ccco3)n12,YS (TK+),HEL,plaque count,11 µg/mL
C=Cc1cn([C@@H]2O[C@H](CO)[C@@H](O)[C@@H]2O)c(=O)[nH]c1=O,Kawaguchi acyclovir-resistant mutant A8,,plaque count,0.1055 µg/mL
NC1=NC2C(C=CN2CC(CO)CCO)C(=O)N1,,VERO,cytopathic effect,0.01–0.1 µM
O=c1[nH]c(=O)n([C@H]2C[C@H](O)[C@@H](COP3(=O)OCc4c(ccc5ccccc45)O3)O2)cc1/C=C/Br,OKA,HELF,plaque count,0.014 µg/mL
C=C1[C@H](CO)[C@@H](O)C[C@@H]1n1cnc2c(=O)[nH]c(N)nc21,,WI-38,plaque count,15 µM
Cc1c(Br)cc(Br)c2ncc(CSC(C)c3cccs3)n12,YS (TK+),HEL,plaque count,>2 µg/mL
CCCCCC[C@@H]([C@H](C)O)n1cnc2c(N)ncnc21,VEX411,HEF,cytopathic effect,30 µg/mL
Cc1cn([C@@H]2O[C@H](CO)[C@H]2CO)c(=O)[nH]c1=O,V8907,HFF,plaque count,0.01 µg/mL
Cc1c(Br)cc(Br)c2ncc(CSCc3ccc(Cl)cc3)n12,OKA (TK+),HEL,plaque count,>2 µg/mL
Nc1nc2c(ncn2[C@H]2C=C[C@@H](CO)[C@H](O)C2)c(=O)[nH]1,OKA,E6SM,cytopathic effect,1.9 µg/mL
CC1(C)[C@H](CCO)C[C@@H]1n1cnc2c(Cl)ncnc21,YS (TK+),,plaque count,>50 µg/mL
Cc1cn([C@@H]2O[C@H](CO)[C@@H](O)[C@@H]2O)c(=O)[nH]c1=O,Kawaguchi acyclovir-resistant mutant A7,,plaque count,0.0119 µg/mL
Nc1nc2c(ncn2COCCO)c(=O)[nH]1,YS (TK+),,plaque count,0.28 µg/mL
Cc1cccc(CSCc2cnc3c(Br)cc(Br)c(C)n23)c1,YS (TK+),HEL,plaque count,13 µg/mL
CC1(C)[C@H](CCO)C[C@@H]1n1nnc2c(=O)[nH]cnc21,YS/R (TK-),,plaque count,>50 µg/mL
Nc1nc2c(ncn2CCC(CO)CO)c(=O)[nH]1,,VERO,cytopathic effect,10–100 µM
Cc1c(Br)cc(Br)c2ncc(CSCc3cccc(C(F)(F)F)c3)n12,07/1 (TK-),HEL,plaque count,>5 µg/mL
O=C(NCc1ccc(Cl)cc1)c1c[nH]c2ccc(C#CCO)cc2c1=O,RAI,,plaque count,0.1 µM
Nc1ncnc2c1ncn2C[C@@H](CO)OCP(=O)(O)O,Oka penciclovir-resistant/A,HEL,cytopathic effect,0.011 µM

Again, the opening 4 rows:

smiles	strain or isolate	cells	method	result
Nc1nc2c(ncn2[C@@H]2C[C@H](CO)[C@H]2CO)c(=O)[nH]1		VERO	cytopathic effect	0.01–0.1 µM
O=c1[nH]c(=O)n([C@H]2CO[C@@H](CO)O2)cc1/C=C/Br		HEL 299		21 µM
O=c1[nH]c(=O)n([C@H]2C[C@H](O)[C@@H](CO)O2)cc1/C=C/Br	KANNO	HEF	plaque count	0.008 µg/mL
Nc1nc2c(ncn2COCCO)c(=O)[nH]1		HEL 299		4 µM